Patent US20250345307A1, “SYNTHETIC […] BROAD-SPECTRUM ANTIVIRAL ACTIVITIES AND USES THEREOF” (priority 2020, published 2025)
The source's definition of the ratio is not given here.

Tested on: ZIKV
Assay: Antiviral activity against ZIKV (strain 976 Uganda) in A549 cells, intracellular ZIKV genomes by qRT-PCR
Type: cell-based, Zika virus
Conditions: Selectivity Index

| SMILES | SI |
| --- | --- |
| COC(=O)[C@H]1[C@@H](O)[C@@]2(O)c3c(OC)cc(O[C@@H]4O[C@@H]([C@H](O)CO)CO[C@H]4OC)cc3O[C@@]2(c2ccc(OC)cc2)[C@@H]1c1ccccc1 [Silvestrol, methyl(1R,2R,3S,3aR,8bS)-6-[[(2S,3R,6R)-6-[(1R)-1,2-dihydroxyethyl]-3-methoxy-1,4-dioxan-2-yl]oxy]-1,8b-dihydroxy-8-methoxy-3a-(4-methoxyphenyl)-3-phenyl-2,3-dihydro-1H-cyclopenta[b][1]benzofuran-2-carboxylate, reference compound] | 8.8 |
| CONC(=O)[C@H]1[C@@H](O)[C@@]2(O)c3c(OC)cc(OC)cc3O[C@@]2(c2ccc(OC)cc2)[C@@H]1c1ccccc1 [CR-31-B (−)] | 17.1 |
